PMC12170906
The exact form of at least one protein or probe is not confirmed. At least one verdict was read from the data and is not stated in words by the source. Tags and fusion partners may be left off the protein sequences shown.

Target: T1, Zur (Mycobacterium tuberculosis) (UniProt P9WN85)
T1 sequence (looked up, limits assumed): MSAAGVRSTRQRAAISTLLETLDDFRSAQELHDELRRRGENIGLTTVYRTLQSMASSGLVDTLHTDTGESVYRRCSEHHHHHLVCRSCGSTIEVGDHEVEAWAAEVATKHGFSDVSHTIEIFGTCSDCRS
Test: EMSA
Details: 500 uM ZnCl2, 400 uM EDTA; recombinant protein; protein details: N-terminal His6 with TEV site, tag removed by TEV

Row | Sequence | binding result
1 | CCTTCCTTCGAAGCTCGGCTTATTGAAAATCATTTTCGACAACAGCTAGGTGGCACTGTA (double strand) [Rv2059 Zur site 60-mer] | binds
2 | GCTAGGTGGCACTGTACCGTCGACGTCGCAATAATGAAAACTGTTATCGATAAGGAGGAC (double strand) [rpmB2 Zur site 60-mer] | binds
